Experiments:
[1] = test system: promastigotes of Leishmania major (strain MHOM/IL/81/Friedlin); test: In vitro toxicity assay (resazurin), L. major promastigotes; assay type: cell-based; conditions: for L. major GI50 ratio: selectivity index GI50,HL-60/GI50,parasite; for L. major MIC ratio: selectivity index MIC HL-60/MIC parasite
Protocol: (§1) Bloodstream forms of Trypanosoma brucei (clone 427-221a) and human myeloid leukaemia HL-60 cells were maintained in Baltz medium supplemented with 16.7% heat-inactivated bovine serum in a humidified atmosphere containing 5% CO2 at 37 °C. Promastigotes of Leishmania major (strain MHOM/IL/81/Friedlin [16]) were cultured in Schneider’s insect medium supplemented with 10% heat-inactivated foetal bovine serum in a humidified atmosphere containing 5% CO2 at 27 °C.
(§2) Toxicity assays were carried out as previously described with some modifications. In brief, cells were seeded in 96-well plates in a final volume of 200 μL of appropriate medium containing various concentrations of test compounds (tenfold dilution from 100 µM to 1 nM) and 1% DMSO. Wells just containing medium and 1% DMSO served as controls. The initial cell densities were 1 × 10^4/mL for T. brucei bloodstream forms, 2.5 × 10^5/mL for L. major promastigotes, and 5 × 10^4/mL for HL-60 cells. After 24 h incubation, 20 µL of a 0.5 mM resazurin solution prepared in PBS was added and the cells were incubated for a further 48 h. Thereafter, the absorbance of wells was read on a BioTek ELx808 microplate reader using a test wavelength of 570 nm and a reference wavelength of 630 nm. The 50% growth inhibition (GI50) value, i.e., the concentration of a compound necessary to reduce the growth rate of cells by 50% compared to the control, was determined by linear interpolation. The minimum inhibitory concentration (MIC) values, i.e. the concentration of a compound at which all trypanosomes and human cells were killed, was determined microscopically.

[2] = test system: bloodstream forms of Trypanosoma brucei (clone 427-221a); test: In vitro toxicity assay (resazurin), T. brucei bloodstream forms; assay type: cell-based; conditions: for T. brucei MIC ratio: selectivity index MIC HL-60/MIC parasite; for T. brucei GI50 ratio: selectivity index GI50,HL-60/GI50,parasite
Protocol: as §1, §2

SMILES: C[C@@H]1[C@H](O)[C@@H](C)/C=C/C=C/C=C/C=C/C=C/C=C/C=C/[C@H](O[C@@H]2O[C@H](C)[C@@H](O)[C@H](N)[C@@H]2O)C[C@@H]2O[C@](O)(C[C@@H](O)C[C@@H](O)[C@H](O)CC[C@@H](O)C[C@@H](O)CC(=O)O[C@H]1C)C[C@H](O)[C@H]2C(=O)O [Amphotericin B, reference compound]
- L. major GI50 ratio [1]: 1408
- L. major MIC ratio [1]: > 1000

SMILES: CC1(C)C(=O)C=C[C@]2(C)C3C(=O)C[C@@]4(C)[C@H](c5ccoc5)OC(=O)[C@H]5O[C@]54[C@]3(C)[C@H](O)C[C@@H]12 (stereo partly shown) [Compound 2, kotschyienone B]
- T. brucei MIC ratio [2]: > 1
- L. major GI50 ratio [1]: > 6.7
- L. major MIC ratio [1]: > 1

SMILES: C=C1[C@@H]([C@@]2(C)C=CC(=O)C(C)(C)[C@@H]2CC(=O)OC)CC[C@@]2(C)[C@H](c3ccoc3)OC(=O)[C@H]3O[C@]132 [Compound 5, andirobin]
- T. brucei GI50 ratio [2]: > 8.7
- L. major GI50 ratio [1]: 1
- L. major MIC ratio [1]: 1

SMILES: Cc1ccc(C(=O)Nc2ccc(S(=O)(=O)O)c3cc(S(=O)(=O)O)cc(S(=O)(=O)O)c23)cc1NC(=O)c1cccc(NC(=O)Nc2cccc(C(=O)Nc3cc(C(=O)Nc4ccc(S(=O)(=O)O)c5cc(S(=O)(=O)O)cc(S(=O)(=O)O)c45)ccc3C)c2)c1 [Suramin, reference compound]
- T. brucei GI50 ratio [2]: > 2381
- T. brucei MIC ratio [2]: > 100

Reference: publication PMC7253382, “Trypanocidal and leishmanicidal activity of six limonoids” (Journal of Natural Medicines, 2020)
